Experimental data from BindingDB's records for 23978130.

Each compound was assayed against Polymerase acidic protein [1-204,T86I,G186S] (Influenza A virus (A/Netherlands/2631_1202/2010(H1N1)), UniProt P13166, T86I/G186S) (assay: Fragment Screening).
In the case of `Nc1ccc(Br)nc1`, the IC50 is reported as > 1000 µM. `Nc1c(C(=O)O)sc2ncccc12` was tested, and the IC50 was > 1000 µM. In the case of `O=C(O)c1ccc(-n2cncn2)cc1`, the IC50 is reported as > 1000 µM. Compound `COC(=O)c1c(SC)nc(-c2ccccc2)[nH]c1=O` has an IC50 of 250 µM. `Brc1cnc2ccccn12` was tested, and the IC50 was > 1000 µM. `O=c1[nH]cc(Cl)cc1O` gave an IC50 of 25 µM. In the case of `Nc1ccncc1Br`, the IC50 is reported as > 1000 µM. For `Oc1ccc(-n2ccnc2)cc1`, the IC50 was 1000 µM. For `CN1CCc2cc(O)c(O)cc2C1Cc1ccc(O)c(O)c1` (centres undefined), the IC50 was 2 µM.
